A mixed list of measured activities; the numbers were collected in NIAID ChemDB.

Shared fields: tests in culture; species: HIV-1; cell line: H9; read-out: inhibition

Neighbouring rows are from separate reports.

structure	strain or isolate	method	setting	dose	result
O=C(O)P(=O)(O)O		p24 / ELISA		50 µg/mL	76%
Cc1c(-c2cnccn2)ssc1=S	IIIB	MTT / p24		60 µM	90%
CCCC(=O)O[C@H]1CN2CC[C@H](O)[C@@H]2[C@@H](O)[C@@H]1O	RF			4 µM	90%
NCC(=O)N1CCC[C@H]1C(=O)NCC(=O)N[C@H](C=O)CCCN=C(N)N	IIIB	p24		25 µg/mL	0%
C[C@@H]1[C@H](O)[C@@H](C)/C=C/C=C/CC/C=C/C=C/C=C/C=C/C(O[C@H]2O[C@H](C)[C@@H](O)[C@H](N)[C@@H]2O)CC2O[C@](O)(CC(O)C(O)CCC(O)CC(O)CC(O)CC(=O)O[C@H]1C)CC(O)C2C(=O)O		RT activity		10 µg/mL	95%
Cc1c(CBr)n2c(C[N+](C)(C)C)c(C)c(=O)n2c1=O.[Br-]	IIIB	p24		1000 µM	88%
O=C(O)P(=O)(O)O	IIIB	p24 / antigen	4 d	150 µM	88%
O=CCNC(=O)[C@@H]1CCCN1	IIIB	syncytia		250 µg/mL	100%
Nc1nc(=O)n([C@H]2C[C@H](O)[C@@H](CO)O2)cc1-c1ccsc1	IIIB	RT activity		10 µg/mL	<1%
COc1cc([C@@H]2c3cc4c(cc3[C@H](O)[C@H]3COC(=O)[C@H]23)OCO4)cc(OC)c1OC	IIIB	p24		0.007 µM	89%
CC[C@H](C)[C@H](NC(=O)[C@H](C/C=C/c1ccccc1)C[C@H](O)[C@H](Cc1ccccc1)NC(=O)OC(C)(C)C)C(=O)NCc1nc2ccccc2[nH]1	RF	antigen		0.012 µM	100%
O=C1N(Cc2ccc(CO)cc2)[C@H](Cc2ccccc2)[C@H](O)[C@@H](O)[C@@H](Cc2ccccc2)N1Cc1ccc(CO)cc1	RF	virus yield		0.04 µM	90%
O=C1OC(C2OC(=O)c3cc(O)c(O)c(O)c3-c3c(O)c(O)c4oc(=O)c5c(c(O)c(O)c6oc(=O)c3c4c65)-c3c(cc(O)c(O)c3O)C(=O)OCC2O)C2OC(=O)c3c(c(O)c(O)c(O)c3C2O)-c2c1cc(O)c(O)c2O	IIIB	p24		1 µg/mL	50%
COc1cc([C@H]2OC[C@H]3[C@@H]2CO[C@@H]3c2ccc3c(c2)OCO3)cc(OC)c1OC	IIIB	syncytia		10.6 µM	97%
CC[C@@]1(O)C(=O)OCc2c1cc1n(c2=O)Cc2cc3ccccc3nc2-1	IIIB	RT activity		0.2 µM	98%
O=C(O)P(=O)(O)O	IIIB	cytopathic effect / MTT		8 µM	60%
CCCCN1C[C@H](O)[C@@H](O)[C@H](O)[C@H]1CO		p24		2000 µM	88%
NCC(=O)NCC(=O)NCC=O	IIIB	syncytia		250 µg/mL	0%
CCSCCCCCCCCCCC(=O)O		RT activity		100 µM	92%
Cc1cn([C@@H]2O[C@H](CO)[C@@H](N=[N+]=[N-])[C@@H]2F)c(=O)[nH]c1=O	IIIB	antigen		100 µM	0%
CC(C)[C@H](NC(=O)c1ccc2ccccc2n1)C(=O)N[C@@H](Cc1ccccc1)[C@H](O)CN1CC[C@@H](OCc2ccncc2)C[C@H]1C(=O)NC(C)(C)C	HXB2	p24		0.014 µM	90%
COc1cc(C[C@H]2C(=O)OC[C@@H]2Cc2ccc(OC)c(OC)c2)ccc1O	IIIB	RT activity		0.13 µM	69%
COC(=O)[C@@H]1C2CCC(C[C@@H]1OC(=O)c1ccccc1)N2C	IIIB	p24		25 µg/mL	<0%
NCC(=O)N1CCC[C@H]1C(=O)NCC(=O)NCC=O	IIIB	p24		25 µg/mL	67.9%
Cc1cn([C@H]2C[C@H](N=[N+]=[N-])[C@@H](CO)O2)c(=O)[nH]c1=O		RT activity		5 µM	95%
Nc1nc(=O)n([C@H]2C[C@H](O)[C@@H](CO)O2)cc1-c1ccoc1	IIIB	RT activity		10 µg/mL	20%
CCCCCCCCOCCCCC(=O)O		RT activity		100 µM	83%
Nc1nc(=O)n([C@H]2C[C@H](O)[C@@H](CO)O2)cc1-c1ccc[se]1	IIIB	RT activity		10 µg/mL	3%
COc1cc(C[C@@]2(O)C(=O)OC[C@@H]2Cc2ccc(OC)c(OC)c2)ccc1O	IIIB	p24		0.52 µM	40%
CCCCCCc1ccsc1-c1cn([C@H]2C[C@H](OC(=O)c3ccc(C)cc3)[C@@H](COC(=O)c3ccc(C)cc3)O2)c(=O)[nH]c1=O	IIIB	RT activity		10 µg/mL	70%
CCCCCCCCCCCCCCCCOC[C@H](CCl)OP(=O)(O)OCC[N+](C)(C)C	IIIB	RT activity		10 µM	81%

The last 3 rows once more:

COc1cc(C[C@@]2(O)C(=O)OC[C@@H]2Cc2ccc(OC)c(OC)c2)ccc1O ; strain or isolate: IIIB ; method: p24 ; dose: 0.52 µM ; result: 40%
CCCCCCc1ccsc1-c1cn([C@H]2C[C@H](OC(=O)c3ccc(C)cc3)[C@@H](COC(=O)c3ccc(C)cc3)O2)c(=O)[nH]c1=O ; strain or isolate: IIIB ; method: RT activity ; dose: 10 µg/mL ; result: 70%
CCCCCCCCCCCCCCCCOC[C@H](CCl)OP(=O)(O)OCC[N+](C)(C)C ; strain or isolate: IIIB ; method: RT activity ; dose: 10 µM ; result: 81%

Percent inhibition refers to the dose given; in toxicity tests it is the harm to the cells. Blank or dashed fields: not listed here.